From US20240218055A1 (US Dept. of Health and Human Services, published 2024) come the findings set out here.

First the molecules themselves.
B1: shark VNAR C3 (VNAR)
VNAR: ARVDQTPQTITAETGESLTINCVLRNSDCGLSDTYWFRMSPGSGSEERISIGGRYLETVNSVSKSFSLRINDLTVEDSGRYRCKTDVYRYVSGSGCLYSYFASGAGTVVTVN
B2: shark VNAR A1 (VNAR)
VNAR: ARVDQTPQTITKETGESLTINCVPPDSNCALADTYWYRKKSGSTNEESISKGGRYVPTVNSGSKSFILRINDLRVADSGTYRCKVSCYAAAYYGQQLERLYDVYGGGTAVTVN
B3: camel VHH D5 (VHH)
VHH: AWQLVESGGGSVQPGGSLTLTCQASKSTFSTSGMRWERQAQGKGVEFVADISSDSTRKWYSDSVKGRFTISRSNWWRTVTLQMNDLKPEDTARYYCKDLESHHLRGQGTQVTVSS
B4: shark VNAR B10 (VNAR)
VNAR: ARVDQTPQTITKETGESLTINCVLRDSNCPLSSTFWYRADAGSLNEENISKGGRYVETVNSGSKSFSLRINDLTTEDSGTYRCKVAGLPLDCIPARGLELNWREDVYGGGTAVTVN
B5: shark VNAR A10 (VNAR)
chain: ARVDQTPQTITKETGESLTITCILRDSQCALSPTYWYHKKSGSTKPERIYKGGRYVETVNSGSKSFSLRINDLTVEDSGTFFCKVSGWYAYSCRLEPDGYYDVYGGGTVVTVN
B6: shark VNAR B8 (VNAR)
VNAR: ARVDQTPQTVTKETGESLTINCVLRDSNCALPSTYWYRKKSGSTNEENISKGGRYVETVNSGSKSFSLRINDLRPEDSGTYRCKVHGLPLDCIPARGLELNWREDVNGGGTAVTVN

For the assay, the target named is stabilized soluble LASV GPC trimer (Lassa virus).
The term Kd denotes the constant that tells how readily two partners part at equilibrium. Higher therefore signals a looser complex. Consider B1, for which the affinity, expressed as Kd, was 19.7 nM. The figure for B2 is 39.1 nM. Under B3 stands 26.7 nM. Take B4: binding was put at a Kd of 44.5 nM. The figure for B5 is 14.3 nM. Under B6 stands 18.8 nM.
